Experimental findings from patent US20140194392A1 (priority 2013, published 2014) are described below.

Protein sequences, listed by entry. Tags and fused reporters are not part of them. Residues count along the entry.
UniProt Q6DPL2, 63-449 limits assumed: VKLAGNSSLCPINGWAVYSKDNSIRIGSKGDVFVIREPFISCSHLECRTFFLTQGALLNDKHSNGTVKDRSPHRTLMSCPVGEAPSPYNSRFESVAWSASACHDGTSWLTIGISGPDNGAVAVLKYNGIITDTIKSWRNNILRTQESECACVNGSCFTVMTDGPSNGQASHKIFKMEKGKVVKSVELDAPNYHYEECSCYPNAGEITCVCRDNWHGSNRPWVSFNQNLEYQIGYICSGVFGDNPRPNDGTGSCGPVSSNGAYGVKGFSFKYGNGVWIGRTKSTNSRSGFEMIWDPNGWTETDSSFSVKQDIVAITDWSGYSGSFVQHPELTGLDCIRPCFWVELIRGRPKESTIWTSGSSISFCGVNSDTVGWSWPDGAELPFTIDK

This experiment addresses Bac-NA^WT (Influenza A virus, UniProt Q6DPL2). Conditions: IC50 compared with Bac-NA^WT.

With `Nc1c(S(=O)(=O)O)cc(Nc2cccc(S(=O)(=O)CCOS(=O)(=O)O)c2)c2c1C(=O)c1ccccc1C2=O` [RB19, remazol brilliant blue R], the Fold change is given as 3.4 × 10^3(1).
